The entries are a selection whose mix differs from that of the whole data set. Inconclusive results are not listed. Active and inactive are the calls of the source. Calls come from the whole dose curve; as a rule, active = well fitted inhibition curve with a large enough effect; inconclusive = small, poorly fitted or top-dose-only effect, or effect the other way; inactive = flat fitted curve, though single readings scatter.
Each compound was assayed against ATP-dependent 6-phosphofructokinase (Trypanosoma brucei brucei) (UniProt O15648) (assay: Inhibitors of T. brucei phosphofructokinase: Hit Validation). Conditions: purified T. brucei PFK, ADP-Glo luminescence, 45 min.
Text: NCGC Assay Overview: Various species of the protozoan family Trypanosomatidae are responsible for a range of serious human diseases in tropical and subtropical areas of the world. […] Many of the disorders caused by trypanosomatids are fatal if left untreated, but most currently used drugs are inefficient and toxic. […] Oxidative metabolism involving the mitochondrial tricarboxylic acid cycle and oxidative phosphorylation are repressed in these parasites, and recent RNA interference (RNAi) experiments have shown that even partial depletion of certain individual glycolytic enzymes can lead to the death of cultured parasites. […] A luminescence-based assay for T. brucei PFK activity has been developed which uses luciferase to detect production of ADP. […] To directly measure the ADP product of the PFK reaction, we used the ADP-Glo detection kit (Promega), which utilizes two separate reactions to 1) deplete all remaining uncatalyzed ATP and 2) convert all remaining ADP to ATP, which is then detected through a traditional luciferase-coupled reaction. […]
NCGC Assay Protocol Summary: Substrate buffer was dispensed into white, solid 1536-well plates at 3uL/well in 0.1M triethanolamine (TEA) buffer, pH 8.0, containing final concentrations of 5 mM MgCl2, 0.01% Tween20, 0.5 mM fructose-6-phosphate (F6P) and 0.1mM ATP. […] The %Activity was determined from the corrected luminescence values. […]
Note: nearly all actives have a fitted effect of over 60% in size.
Potency is the fitted concentration of half-maximal effect.

The chains behind the UniProt entries cited, without tags or fusion partners. Where a name states a change or a piece, a line headed by the entry shows the natural chain unless it says otherwise.
UniProt O15648: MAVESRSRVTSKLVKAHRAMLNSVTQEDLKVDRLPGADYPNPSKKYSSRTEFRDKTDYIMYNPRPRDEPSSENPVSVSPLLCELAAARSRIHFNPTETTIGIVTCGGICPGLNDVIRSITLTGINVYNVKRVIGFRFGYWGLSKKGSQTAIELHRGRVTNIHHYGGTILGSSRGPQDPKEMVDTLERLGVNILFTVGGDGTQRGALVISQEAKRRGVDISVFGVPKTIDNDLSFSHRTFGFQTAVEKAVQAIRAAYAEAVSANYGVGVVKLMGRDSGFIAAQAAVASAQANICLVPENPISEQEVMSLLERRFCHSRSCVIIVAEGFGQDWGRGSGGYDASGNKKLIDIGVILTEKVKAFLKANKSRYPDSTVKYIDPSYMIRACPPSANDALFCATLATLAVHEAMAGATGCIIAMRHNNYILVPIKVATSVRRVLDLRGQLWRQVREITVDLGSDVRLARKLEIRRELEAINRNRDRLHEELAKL

| Structure (SMILES) | Potency |
| --- | --- |
| O=P(Nc1nccs1)(c1ccccc1)c1nc2ccccc2s1 (stereo unspecified) | active: 19 µM |
